Assay results: patent US20040265803A1, “Genes and their genetic products pertinent to microsatellite instable (msi+) tumours” (priority 2000, published 2004)

Target: […] peptide derived from a matrix protein of the influenzavirus, presented on cells of the HLA (influenzavirus)

“T cells from an HLA-A0201-positive healthy proband tested against the […] peptide (cells without a defined receptor)” was tested, and the IFN-gamma ELISpot, specific cells/1,000,000 cells (specific cells/1,000,000) was 1170.
